Reference: article PMC7997032, “Organic synthesis and anti-influenza A virus activity of cyclobakuchiols A, B, C, and D” (PLoS ONE, 2021)

Test system: A/PR/8/34 virus
Type: cell-based
Conditions: 12.5 μM, 24h WB, internal control, single experiment

Structure (SMILES): C=C[C@]1(C)CCC(C(=C)C)C(c2ccc(O)cc2)C1 (stereo in doubt) [cyclobakuchiol A]
- b-actin mean (western blot signal intensity, ImageJ) (listed as cyclo A): 156.336 and 133.85 and 133.178

Structure (SMILES): C=C[C@]1(C)CCC(C(=C)C)C(c2ccc(O)cc2)C1 (stereo in doubt) [cyclobakuchiol B]
- b-actin mean (western blot signal intensity, ImageJ): 145.043 and 116.425 and 132.668

Structure (SMILES): C=C[C@]1(C)CCC(C(C)(C)O)C(c2ccc(O)cc2)C1 (stereo in doubt) [cyclobakuchiol C]
- b-actin mean (western blot signal intensity, ImageJ) (listed as cyclo C): 131.086 and 106.034 and 136.563

Structure (SMILES): C=C[C@]1(C)CCC(C(C)(C)O)C(c2ccc(O)cc2)C1 (stereo in doubt) [cyclobakuchiol D]
- b-actin mean (western blot signal intensity, ImageJ) (listed as cyclo D): 122.172 and 135.965 and 130.558

Structure (SMILES): C=C[C@@](C)(/C=C/c1ccc(O)cc1)CCC=C(C)C [(+)-(S)-bakuchiol, reference compound]
- b-actin mean (western blot signal intensity, ImageJ): 156.622 and 135.848 and 135.596

Where “and” joins values, the source holds several entries; their conditions need not be identical. Equal values may be shown once. Read-outs that look alike come from different tables or passages of the source.
